Compound potency records, mixed from different reports. Data source: NIAID ChemDB in PubChem.

Common to all: whole-cell or culture tests; organism: Hepatitis B virus; method: PCR; read-out: EC50

An empty or dashed field is not shown. Rows are shuffled and stem from different studies. a–b is a range or a potency band. ECn is the concentration giving n% inhibition of infection, replication or growth.

| SMILES | setting | strain or isolate | cells | value |
|---|---|---|---|---|
| O=C(Nc1ccc(F)c(Cl)c1)N1CCS(=O)(=O)[C@H](c2ccccc2)C1 | - | - | HepG2.117 | 0.5–5 µM |
| COc1cccc(CNS(=O)(=O)Nc2ccc3c(C(=O)Nc4ccc(F)c(Cl)c4)n(C)nc3c2)n1 | - | - | HepAD38 | 100–1000 µM |
| C[C@@H](Oc1ccc(-n2c(C(=O)NCc3ccccc3)c3n(c2=O)CCN(C(=O)c2ccc(Br)c(Cl)c2)C3)cc1)C(F)(F)F | - | - | HepG2.117 | 0.5–5 µM |
| O=C(c1ccc(Br)c(Cl)c1)N1CCS(=O)(=O)C(c2nc(Cc3ccccc3)cs2)C1 | - | - | HepG2.117 | 0.1–0.5 µM |
| Cc1c(C(=O)C(=O)NC(C)(C)c2nccs2)c(C)n(C)c1C(=O)Nc1ccc(F)c(C(F)(F)F)c1 | - | - | HepG2.2.15 | 0.001–0.0099 µM |
| CNC(=O)c1ccc(-n2c(-n3nc(C)cc3C)nc3c(c2=O)C[C@@H](C)N(C(=O)c2ccc(Br)c(C(F)(F)F)c2)C3)cn1 | - | Genotype D | HepG2.117 | ≤0.05 µM |
| CCOC(=O)C1=C(CN2CC(F)(F)[C@@H]3[C@H]2CON3C[C@H](O)C(C)(C)C(=O)O)NC(c2nccs2)=N[C@H]1c1cccc(F)c1C | - | - | HepG2.2.15 | 0.064 µM |
| CCNC(=O)C(=O)N1CCC(NS(=O)(=O)c2cn(C)c(C(=O)Nc3cc(F)c(F)c(F)c3)c2Cl)C2(CC2)C1 | - | - | HepAD38 cells | <0.1 µM |
| Cc1nn(C)c(C)c1S(=O)(=O)Nc1ccc2c(C(=O)Nc3ccc(F)c(Cl)c3)n(C)nc2c1 | - | - | HepAD38 | 100–1000 µM |
| C[C@@H](NC(=O)c1c2n(c(=O)n1-c1ccc(OC3CCC3)cc1)CCN(C(=O)c1ccc(Br)c(Cl)c1)C2)c1ccccc1 | - | - | HepG2.117 | 0.1–0.5 µM |
| O=C(c1ccc(Br)c(Cl)c1)N1CCS(=O)(=O)C(c2ncc(Cc3ccccc3)s2)C1 | - | - | HepG2.117 | 0.1–0.5 µM |
| C#C[C@H](C)NC(=O)C(=O)c1c(C)c(C(=O)Nc2ccc(F)c(C#N)c2)n(C)c1C | - | - | HepG2.2.15 | 0.001–0.0099 µM |
| CCOC(=O)C1=C(CN2CC(F)(F)[C@@H]3[C@H]2CON3C[C@H](O)[C@@H](CC)C(=O)O)NC(c2nccs2)=N[C@H]1c1cccc(F)c1C | - | - | HepG2.2.15 | 0.051 µM |
| Cc1cc(NC(=O)c2c3c(cn2C)S(=O)(=O)NC2CN(C(=O)C(=O)N[C@@H](C)C(F)(F)F)CCC2CO3)ccc1F | - | - | HepAD38 | <0.5 µM |
| O=C(Nc1ccc(F)c(Cl)c1)N1CCS(=O)(=O)[C@@H](c2ccccc2)C1 | - | - | HepG2.117 | >5 µM |
| Cc1cc(NC(=O)c2c3c(cn2C)S(=O)(=O)N[C@H]2CN(C(=O)C(=O)NC(C)(C)C)C[C@H]2CO3)ccc1F | - | - | HepAD38 | <0.5 µM |
| C#CC1(NC(=O)C(=O)c2c(C)c(C(=O)Nc3ccc(F)c(C#N)c3)n(C)c2Cl)COC1 | - | - | HepG2.2.15 | <0.001 µM |
| CNC(=O)c1ccc(-n2c(=O)c3c(n4ncc(NCc5ccc(C#N)cc5)c24)CN(C(=O)c2ccc(Cl)c(Cl)c2)CC3)cc1 | 3 d | - | HepG2.117 | 0.5–5 µM |
| CN(C)CCN(C1CC1)S(=O)(=O)CNc1ccc2c(C(=O)Nc3ccc(F)c(Cl)c3)n(C)nc2c1 | - | - | HepAD38 | 100–1000 µM |
| N#Cc1cc(C(=O)N2CCc3c(n4ncc(Cc5ccccc5)c4n(-c4ccc(-n5cccn5)cc4)c3=O)C2)ccc1Br | 3 d | - | HepG2.117 | >5 µM |
| CCOC(=O)C1=C(CN2CC(F)(F)[C@H]3[C@@H]2CCN3C[C@H](O)C(C)(C)C(=O)O)NC(c2nccs2)=N[C@@H]1c1cccc(F)c1F | - | - | HepG2.2.15 | 0.035 µM |
| C#CC1(NC(=O)C(=O)c2c(C)c(C(=O)Nc3ccnc(F)c3Br)n(C)c2C)COC1 | - | - | HepG2.2.15 | 0.001–0.0099 µM |
| CCOC(=O)C1=C(CN2CC(F)(F)[C@@H]3[C@H]2CON3C[C@H](O)C(C)(C)C(=O)O)NC(c2nccs2)=N[C@H]1c1ccc(F)c(F)c1F | - | - | HepG2.2.15 | 0.0455 µM |
| CNC(=O)C(=O)N1C[C@H]2CSc3c(cn(C)c3C(=O)Nc3ccc(F)c(C)c3)S(=O)(=O)N[C@H]2C1 | - | - | HepAD38 | <0.5 µM |
| C[C@@H]1Cn2c(c3n(c2=O)C[C@@H](F)CN(Cc2ccccc2)C3=O)CN1C(=O)c1ccc(Br)c(Cl)c1 | - | - | HepG2.117 | 0.1–0.5 µM |
| CCn1cc(S(=O)(=O)N[C@@H]2CCCN(S(=O)(=O)NC)C2)c(F)c1C(=O)Nc1ccc(F)c(F)c1 | - | - | HepAD38 cells | <0.1 µM |
| Cc1c(C(=O)C(=O)NCC#CC2CC2)c(C)n(C)c1C(=O)Nc1ccc(F)c(C#N)c1 | - | - | HepG2.2.15 | 0.001–0.0099 µM |
| Cc1cc(C)n(-c2nc3c(c(=O)n2-c2ccc4c(cnn4C)c2)C[C@@H](C)N(C(=O)c2ccc(Br)c(C(F)(F)F)c2)C3)n1 | - | Genotype D | HepG2.117 | ≤0.05 µM |
| Cc1cc(NC(=O)c2c3c(cn2C)S(=O)(=O)NC2CCN(C(=O)C(=O)NC4CC4)CC2CO3)ccc1F | - | - | HepAD38 | <0.5 µM |
| O=C(c1cccc(Cl)c1F)N1CCS(=O)(=O)[C@H](c2cccs2)C1 | - | - | HepG2.2.15 | >5 µM |
| COc1ccc(-n2c(=O)c3c(n4ncc(Nc5ccccc5)c24)CN(C(=O)c2ccc(Br)c(Cl)c2)CC3)cc1 | 3 d | - | HepG2.117 | <0.1 µM |
| Cc1cc(C)n(-c2nc3c(c(=O)n2-c2ccc(NC[C@H](O)CO)nc2)C[C@@H](C)N(C(=O)c2ccc(Br)c(C(F)(F)F)c2)C3)n1 | - | Genotype D | HepG2.117 | 0.05–0.5 µM |
| Cn1nc2cc(NS(=O)(=O)C3CC3)cnc2c1C(=O)Nc1ccc(F)c(Cl)c1 | - | - | HepAD38 | >1000 µM |
| Cc1c(C(=O)C(=O)NC2(c3ncc[nH]3)COC2)c(C)n(C)c1C(=O)Nc1ccc(F)c(C(F)(F)F)c1 | - | - | HepG2.2.15 | 0.001–0.0099 µM |
| COc1ccc(-n2c(C(=O)NCc3ccccc3)c3n(c2=O)CCN(C(=O)c2ccc(Cl)c(Cl)c2)C3)c(C#N)c1 | - | - | HepG2.117 | >5 µM |
| COC(=O)C1=C(CN2CC(F)(F)[C@@H]3[C@H]2CON3C[C@@H](OC)C(C)(C)C(=O)O)NC(c2ncoc2C)=N[C@H]1c1ccc(F)cc1Cl | - | - | HepG2.2.15 | 0.013 µM |
| CCOC(=O)Nc1ccc2nn(C)c(C(=O)Nc3ccc(F)c(Cl)c3)c2c1 | - | - | HepAD38 | >1000 µM |
| O=C(c1ccc(Cl)cc1Cl)N1CCS(=O)(=O)[C@H](c2cccs2)C1 | - | - | HepG2.2.15 | 0.5–5 µM |
| CCOC(=O)C1=C(CN2CC(F)(F)[C@H]3[C@@H]2CCN3C[C@@H](O)C(C)(C)C(=O)O)NC(c2nccs2)=N[C@@H]1c1cccc(F)c1F | - | - | HepG2.2.15 | 0.11 µM |
| C#C[C@H](NC(=O)C(=O)c1c(C)c(C(=O)Nc2ccc(F)c(C#N)c2)n(C)c1C)C(C)(C)C | - | - | HepG2.2.15 | <0.001 µM |
| Cc1cc(C)n(-c2nc3c(c(=O)n2-c2ccc(O)cc2)C[C@@H](C)N(C(=O)c2ccc(Br)c(C(F)(F)F)c2)C3)n1 | - | Genotype D | HepG2.117 | ≤0.05 µM |
| CNC(=O)c1ccc(-n2c(=O)c3c(n4ncc(Cc5ccc(C#N)cc5)c24)CN(C(=O)c2ccc(Br)c(Cl)c2)CC3)cc1 | 3 d | - | HepG2.117 | <0.1 µM |
| O=C(NCc1ccccc1)C1CN(C(=O)c2ccc(Br)c(Cl)c2)CCS1(=O)=O | - | - | HepG2.117 | 0.1–0.5 µM |
| CNS(=O)(=O)N1CC[C@@H](NS(=O)(=O)c2cn(C)c(C(=O)Nc3ccc(F)c(C(F)F)c3)c2F)C1 | - | - | HepAD38 cells | <0.1 µM |
| Cc1cc(C)n(-c2nc3c(c(=O)n2-c2cc(Cl)c4c(c2)ncn4C)C[C@@H](C)N(C(=O)c2ccc(Br)c(C(F)(F)F)c2)C3)n1 | - | Genotype D | HepG2.117 | ≤0.05 µM |
| COCCOc1ccc(-n2c(C(=O)NCc3ccccc3)c3n(c2=O)CCN(C(=O)c2ccc(Br)c(Cl)c2)C3)cc1 | - | - | HepG2.117 | 0.1–0.5 µM |
| Cc1c(C(=O)C(=O)NC(C)(C)c2ccnn2C)c(C)n(C)c1C(=O)Nc1ccc(F)c(C(F)(F)F)c1 | - | - | HepG2.2.15 | 0.001–0.0099 µM |
| CCNC(=O)C(=O)N1CCC(NS(=O)(=O)c2c(F)c(C(=O)Nc3cc(F)c(F)c(F)c3)n(C)c2Br)CC1 | - | - | HepAD38 cells | <0.1 µM |
| O=C(c1ccc(Br)c(Cl)c1)N1CCc2c(n3ncc(Cc4ccccc4)c3n(-c3ccc(-n4cccn4)cc3)c2=O)C1 | 3 d | - | HepG2.117 | >5 µM |
| COc1ccc(-n2c(-c3ncc(Cc4ccccc4)o3)c3n(c2=O)CCN(C(=O)c2ccc(Br)c(Cl)c2)C3)cc1 | - | - | HepG2.117 | 0.5–5 µM |
| CCOC(=O)C1=C(CN2CC(F)(F)[C@@H]3[C@H]2CON3C[C@@H](OCC)C(C)(C)C(=O)O)NC(c2nccs2)=N[C@H]1c1cccc(F)c1C | - | - | HepG2.2.15 | 0.002 µM |
| Cn1nc2cc(NS(=O)(=O)NC3CN(c4ccccc4)C3)ccc2c1C(=O)Nc1ccc(F)c(Cl)c1 | - | - | HepAD38 | 100–1000 µM |
| COc1ccc(CNC(=O)c2c3n(c(=O)n2-c2ccc(-n4cccn4)cc2)CCN(C(=O)c2ccc(Br)c(Cl)c2)C3)c(F)c1 | - | - | HepG2.117 | 0.1–0.5 µM |
| Cc1cc(NC(=O)c2c3c(cn2C)S(=O)(=O)N[C@H]2CN(C(=O)C(=O)NC4CCC4)C[C@H]2CO3)ccc1F | - | - | HepAD38 | <0.5 µM |
| Cn1cnc(-c2ccc([C@H]3CN(C(=O)c4ccc(Br)c(Cl)c4)CCS3(=O)=O)s2)c1 | - | - | HepG2.2.15 | 0.5–5 µM |
| Cc1cc(NC(=O)c2c3c(cn2C)S(=O)(=O)N[C@H]2CN(C(=O)C(=O)N[C@H](C)C(F)(F)F)C[C@H]2CO3)ccc1F | - | Genotype B | HepG2 | 0.00158 µM |
| C[C@H](NS(=O)(=O)Nc1ccc2c(C(=O)Nc3ccc(F)c(Cl)c3)n(C)nc2c1)c1ccccc1 | - | - | HepAD38 | 100–1000 µM |
| CNC(=O)c1ccc(-n2c(=O)c3c(n4ncc(NCc5ccccc5)c24)CN(C(=O)c2ccc(Br)c(Cl)c2)CC3)cc1 | 3 d | - | HepG2.117 | <0.1 µM |
| Cc1c(NS(=O)(=O)c2ccc3c(C(=O)Nc4ccc(F)c(Cl)c4)n(C)nc3c2)cnn1C | - | - | HepAD38 | 100–1000 µM |
| CCOC(=O)C1=C(CN2CC(F)(F)[C@@H]3[C@H]2CON3CC[C@](C)(O)C(=O)O)NC(c2nccs2)=N[C@H]1c1ccc(F)c(F)c1C | - | - | HepG2.2.15 | 0.039 µM |

A second listing of 6 rows from above:

SMILES,setting,strain or isolate,cells,value
CCOC(=O)C1=C(CN2CC(F)(F)[C@H]3[C@@H]2CCN3C[C@@H](O)C(C)(C)C(=O)O)NC(c2nccs2)=N[C@@H]1c1cccc(F)c1F,-,-,HepG2.2.15,0.11 µM
Cc1c(C(=O)C(=O)NCC#CC2CC2)c(C)n(C)c1C(=O)Nc1ccc(F)c(C#N)c1,-,-,HepG2.2.15,0.001–0.0099 µM
CNC(=O)c1ccc(-n2c(=O)c3c(n4ncc(NCc5ccccc5)c24)CN(C(=O)c2ccc(Br)c(Cl)c2)CC3)cc1,3 d,-,HepG2.117,<0.1 µM
CCNC(=O)C(=O)N1CCC(NS(=O)(=O)c2c(F)c(C(=O)Nc3cc(F)c(F)c(F)c3)n(C)c2Br)CC1,-,-,HepAD38 cells,<0.1 µM
CCn1cc(S(=O)(=O)N[C@@H]2CCCN(S(=O)(=O)NC)C2)c(F)c1C(=O)Nc1ccc(F)c(F)c1,-,-,HepAD38 cells,<0.1 µM
COc1cccc(CNS(=O)(=O)Nc2ccc3c(C(=O)Nc4ccc(F)c(Cl)c4)n(C)nc3c2)n1,-,-,HepAD38,100–1000 µM